The target of series [1] is Stl repressor (UniProt Q9F0J8). Put plainly: EMSA. Particulars: no dUTPase; recombinant protein; protein details: GST tag removed by thrombin on column (pGEX-4T-1); label: none (GelRed stain).
In series [2] the test system is Stl repressor + Drosophila melanogaster dUTPase. Briefly: EMSA. Particulars: D. melanogaster dUTPase added to DNA-Stl, no dissociation, new higher band, putative ternary complex; recombinant protein; label: none (GelRed stain).

Results on one sequence are retold here after publication PMC5794464.

Construct, isoform or probe ends are uncertain for at least one entry.

For “TCCTCGAACAAATTATCTCACATCGAGATATTTATTTCAACAT (double strand) [Inter-R 43-mer]”, the binding result in series [1] and in series [2] was “binds” in each case.
